Compound potency records, mixed from different reports. Data source: NIAID ChemDB in PubChem.

Shared fields: target-level tests; organism: HIV-2; protein: Reverse transcriptase; read-out: IC50

Conditions beyond the fields shown may differ between rows.

{"smiles": "CCN1c2cc(C)c(C)cc2N(C)S(=O)(=O)c2cccnc21", "value": ">350 µM"}
{"smiles": "COC(=O)/C=C/C1=C(N)C2(OS1(=O)=O)[C@@H](CO[Si](C)(C)C(C)(C)C)O[C@@H](n1cc(C)c(=O)[nH]c1=O)[C@@H]2O[Si](C)(C)C(C)(C)C", "read by": "nucleotide incorporation", "value": ">500 µM"}
{"smiles": "CCOCn1c(Sc2ccccc2)c(CC)c(=O)[nH]c1=O", "read by": "nucleotide incorporation", "value": ">100 µM"}
{"smiles": "CC(C)=CCN1C(=O)Nc2ccc(Cl)cc2S1(=O)=O", "read by": "RT activity", "value": ">30 µM"}
{"smiles": "COC(=O)C(Cc1ccccc1)NC(=O)[C@@H](NC(=O)[C@@H](C[C@H](O)[C@H](CC1CCCCC1)NC(=O)[C@@H](NC(=O)[C@H](Cc1ccccc1)CS(=O)(=O)C(C)(C)C)C(C)C)C(C)C)C(C)C", "read by": "nucleotide incorporation", "strain or isolate": "EHO", "value": ">1553 µM"}
{"smiles": "CC(C)=CCN1C(C)C(=O)Nc2ccc(Cl)cc2S1(=O)=O", "read by": "RT activity", "value": ">30 µM"}
{"smiles": "C=CC1=C(N)C2(OS1(=O)=O)[C@@H](CO[Si](C)(C)C(C)(C)C)O[C@@H](n1cc(C)c(=O)[nH]c1=O)[C@@H]2O[Si](C)(C)C(C)(C)C", "read by": "nucleotide incorporation", "value": ">500 µM"}
{"smiles": "O=S1(c2ccccc2)=NC(=S)Nc2ccccc21", "read by": "nucleotide incorporation", "value": ">300 µM"}
{"smiles": "O=C1c2ccccc2C2(c3ccccc3)SCCN12", "read by": "ELISA", "value": ">200 µM"}
{"smiles": "CC(=O)c1ccc(C)cc1NC(C(N)=O)c1c(Cl)cccc1Cl", "read by": "nucleotide incorporation", "strain or isolate": "ROD", "value": "1384 µM"}
{"smiles": "C[C@H]1[C@H](O)c2c(c3c(c4c(-c5ccccc5)cc(=O)oc24)OC(C)(C)C=C3)O[C@@H]1C", "read by": "scintillation proximity / radiometric", "mutations": "RT-Y181I", "value": "0.41 µM"}
{"smiles": "COc1ccc(OC)c2c(=O)c(O)c[nH]c12", "read by": "radiometric", "value": "4.03 µM"}
{"smiles": "CCOCn1c(Cc2ccccc2)c(C(C)C)c(=O)[nH]c1=O", "read by": "nucleotide incorporation", "strain or isolate": "EHO", "value": ">1656 µM"}
{"smiles": "Cc1c(Sc2ccccc2)n(COCCO)c(=O)[nH]c1=O", "read by": "nucleotide incorporation", "value": ">1200 µM"}

A second listing of 2 rows from above:

smiles | read by | mutations | strain or isolate | value
CCOCn1c(Sc2ccccc2)c(CC)c(=O)[nH]c1=O | nucleotide incorporation |  |  | >100 µM
CC(=O)c1ccc(C)cc1NC(C(N)=O)c1c(Cl)cccc1Cl | nucleotide incorporation |  | ROD | 1384 µM

An empty or dashed field is not shown. ICn: concentration for n% inhibition.